Anti-infective test results gathered from many reports (values: NIAID ChemDB through PubChem).

Common to all: tests in culture; organism: Mycobacterium tuberculosis

MIC50, MIC90 and the like: level of inhibition, or share of isolates inhibited.

structure	endpoint	strain	tested at	method	value
N#Cc1c(NN)nc(NN)c(C#N)c1-c1ccccc1	MIC	H37Rv		BACTEC	≥12.5 µg/mL
COc1ccc(C2SC(C)C(=O)N2NC(=O)COc2ccc(NC(C)=O)cc2)cc1OC	EC50	H37Rv			>12.5 µg/mL
O=C(NCOC(c1ccccc1)c1ccccc1)c1cccnc1	MIC bound	H37Rv		BACTEC	>12.5 µg/mL
CO[C@H]1/C=C/O[C@@]2(C)Oc3c(C)c(O)c4c(O)c(c(/C=N/OC(CC(C)C)C(=O)O)c(O)c4c3C2=O)NC(=O)/C(C)=C\C=C\[C@H](C)[C@H](O)[C@@H](C)[C@@H](O)[C@@H](C)[C@H](OC(C)=O)[C@@H]1C	MIC	H37Rv			>10 µg/mL
Cc1cc(C2=NOC(c3ccco3)C2)ccc1O	MIC	H37R (MTB)			2.76 µM
CC#CC#C/C=C1\C=CC2(OC=CC2OC(C)=O)O1	MIC	TAC-R			12.5 µg/mL
CCCCCOc1ccccc1NC(=O)OC(C)CN1CCCCC1	MIC	My 331/88			125 µM
Cc1cccc(C)c1Nc1nc(-c2ccccc2)cs1	MIC	H37Rv		visual reading	>20 µM
CCCCCCOc1ccccc1NC(=O)OC(C)CN1CCCCC1	MIC	My 331/88			32 µM
CCOC(=O)c1cc(C(=O)c2ccccc2)n2c1ccc1c3ncccc3ccc12	MIC	H37Rv		reporter gene / fluorescence	>200 µM
CC(=O)Nc1ccc(OCC(=O)N/N=C/c2ccccc2)cc1	inhibition	H37Rv	12.5 µg/mL		17%
CC1COc2c(N3CCN(C)CC3)c(F)cc3c(=O)c(C(=O)O)cn1c23	MIC90	20 strains			0.05–0.1 µg/mL
CC1COc2c(N3CCN(C)CC3)c(F)cc3c(=O)c(C(=O)O)cn1c23	MIC	SMI 10		BACTEC	16 µg/mL
COc1ccc2[nH]c3c(C)c4ccncc4c(C)c3c2c1	inhibition	H37Rv	12.8 µg/mL	BACTEC	100%
O=C(Nc1nc(-c2ccccn2)cs1)C1CC1	MIC	H37Rv		visual reading	>20 µM
CCCCCCCCCO/N=C/c1c2c(O)c3c(O)c(C)c4c(c3c1O)C(=O)[C@@](C)(O/C=C/[C@H](OC)[C@@H](C)[C@@H](OC(C)=O)[C@H](C)[C@H](O)[C@H](C)[C@@H](O)[C@@H](C)/C=C/C=C(/C)C(=O)N2)O4	MIC	H37Rv			10 µg/mL
CCOC(=O)C1(C(C)C)OC2(O)C3CCCN3C(=O)C(C(C)C)N2C1=O	inhibition	H37Rv	12.5 µg/mL	BACTEC	4%
CN1C(=O)C(CCC(=O)O)(CCC(=O)O)c2ccccc21	MIC	H37Rv			0.1 µg/mL
CCCCOc1ccc(NC(=O)OCCN2CCCCC2)cc1	MIC	My 331/88			125 µM
CCC(C)N1CCN(c2cc(=O)c3nc4c(oc3c2)c2c(=O)c3c(O)c(C)c5c(c34)=C(O)[C@@](C)(O/C=C/[C@H](OC)[C@@H](C)[C@@H](OC(C)=O)[C@H](C)[C@H](O)[C@H](C)[C@@H](O)[C@@H](C)/C=C/C=C(/C)C(=O)N2)O5)CC1	MIC90	20 strains			0.07 µg/mL
CCCCOc1ccccc1NC(=O)OCCN1CCCCC1	MIC	My 331/88			125 µM
Cc1cc(C2=NOC(c3ccccc3)C2)ccc1O	MIC	INH-resistant M. tuberculosis			6.25 µM
CC1(O)c2ccccc2-c2c1c(-n1ccnc1)nc1ccc(Br)cc21	MIC	H37Rv		BACTEC / radiometric	1.98 µM
NC1=NN(c2ccccc2)C(=O)C1C(=O)C(=O)Nc1nccs1	MIC bound	H37Rv		resazurin	>6.25 µg/mL
CC(=O)Nc1ccc(OCC(=O)NN2C(=O)CSC2c2ccc(Cl)cc2)cc1	inhibition	H37Rv	12.5 µg/mL		0%
CN1C(=O)C2(CCC(=O)CC2)c2ccccc21	MIC	H37Rv			0.05 µg/mL
CO[C@H]1/C=C/O[C@@]2(C)Oc3c(C)c(O)c4c(=O)c(c5oc6cc(N7CCN(CC(C)C)CC7)cc(=O)c6nc5c4c3=C2O)NC(=O)/C(C)=C\C=C\[C@H](C)[C@H](O)[C@@H](C)[C@@H](O)[C@@H](C)[C@H](OC(C)=O)[C@@H]1C	MIC	H37Rv			0.017 µg/mL
CN(C)c1ccc(/C=N/Nc2ccccn2)c(Cl)c1	inhibition	H37Rv	12.5 µg/mL	BACTEC	6%
Cc1cccc(C)c1Nc1cc(-c2ccccn2)ncn1	MIC	H37Rv		visual reading	>20 µM
COc1nc2ccc(Br)cc2cc1[C@@H](c1ccccc1)[C@@](O)(CCN(C)C)c1cccc2ccccc12	MIC90	clinical isolate MAL020139		resazurin	0.03125 µg/mL
Cc1cc(C2=NOC(c3ccc(F)cc3)C2)ccc1O	MIC	H37R (MTB)			1.32 µM
C[C@H]1C=C[C@H]([C@H](N)C(=O)O)O1	MIC	H37Rv		BACTEC	≥12.8 µg/mL
COC(=O)c1c(C(=O)OC)c2ccc3c4ncccc4ccc3n2c1C(=O)c1ccc(Cl)cc1	MIC	H37Rv		reporter gene / fluorescence	50 µM
CCCCCOc1ccccc1NC(=O)OCCN1CCCCC1	MIC	My 331/88			16 µM
Br.Br.c1cnc2c(c1)-n1cccc1C1(CCSCC1)NN2	inhibition	H37Rv	12.5 µg/mL	BACTEC	3%
COC(=O)c1c(C(=O)OC)c2ccc3c4ncccc4ccc3n2c1C(=O)c1ccc(C)cc1	MIC	H37Rv		reporter gene / fluorescence	>200 µM
CCC(=O)c1ccc(NC(=S)NC)cc1	MIC	H37Rv			5 µg/mL
CCN1C(=O)C(CCC(=O)O)(CCC(=O)O)c2ccccc21	MIC	H37Rv			0.1 µg/mL
N#Cc1ccc(Nc2nc(Oc3ccnc4ccccc34)nc(N3CCN(c4ccc(F)cc4)CC3)n2)cc1C(F)(F)F	MIC	H37Rv		agar	25 µg/mL
O=C1N(CC2CO2)CCN1CC1CO1	inhibition	H37Rv	12.5 µg/mL	BACTEC	0%
CCc1cc(C(N)=S)ccn1	MBC	131-4			2.5 µg/mL
COc1cc(C2CC(c3ccc(O)c(C)c3)=NO2)ccc1O	MIC	H37R (MTB)			>6.25 µM
COCCOCCO/N=C/c1c2c(O)c3c(O)c(C)c4c(c3c1O)C(=O)[C@@](C)(O/C=C/[C@H](OC)[C@@H](C)[C@@H](OC(C)=O)[C@H](C)[C@H](O)[C@H](C)[C@@H](O)[C@@H](C)/C=C/C=C(/C)C(=O)N2)O4	MIC	H37Rv			0.5 µg/mL
CSC(=S)NN=C(c1ccccn1)c1ccccn1	inhibition	H37Rv	128 µg/mL	BACTEC	100%
CN(C)C(=O)O/N=C1\c2ccccc2-c2c1c(N1CCN(c3ccccn3)CC1)nc1ccc(Br)cc21	MIC	H37Rv		BACTEC / radiometric	2.79 µM
CO[C@H]1/C=C/O[C@@]2(C)Oc3c(C)c(O)c4c(=O)c(c5oc6cc(N7CCN(C(C)C)CC7)cc(=O)c6nc5c4c3=C2O)NC(=O)/C(C)=C\C=C\[C@H](C)[C@H](O)[C@@H](C)[C@@H](O)[C@@H](C)[C@H](OC(C)=O)[C@@H]1C	MIC	H37Rv			0.017 µg/mL
CCCCOc1cccc(NC(=O)OC(C)CN2CCCCC2)c1	MIC	My 331/88			62.5 µM
Cc1cc(C2=NOC(c3ccccc3Cl)C2)ccc1O	MIC	H37R (MTB)			0.72 µM
CCCCCCOc1cccc(NC(=O)OC(COCC)CN2CCCCC2)c1	MIC	My 331/88			32 µM
Cc1cc(C2=NOC(c3ccc(N(C)C)cc3)C2)ccc1O	MIC	H37R (MTB)			>6.25 µM
COC(=O)c1c(C(=O)OC)c2ccc3c4ncccc4ccc3n2c1C(=O)c1ccc(Br)cc1	MIC	H37Rv		reporter gene / fluorescence	>20 µM
CNC(=S)Nc1ccc(/C(C)=N/O)cc1	MIC	H37Rv			0.156 µg/mL
c1ccc(Nc2nc(-c3cnccn3)cs2)nc1	MIC	H37Rv		visual reading	14 µM
C=CCNC(=S)Nc1ccc(C(C)=O)cc1	MIC	H37Rv			5 µg/mL
COC(=O)C1C(O)C(C)C(OC(C)=O)C(C)/C=C\C=C(/C)C(=O)Nc2c(C)c(OC(C)=O)c3c(c2O)C(=O)C(C)=C2OCOC(=C23)/C(C)=C/C(C)(O)C(O)C(C)C1O	MIC	INH-r			12.5 µg/mL
CCO/N=C/c1c2c(O)c3c(O)c(C)c4c(c3c1O)C(=O)[C@@](C)(O/C=C/[C@H](OC)[C@@H](C)[C@@H](OC(C)=O)[C@H](C)[C@H](O)[C@H](C)[C@@H](O)[C@@H](C)/C=C/C=C(/C)C(=O)N2)O4	MIC	H37Rv			0.1 µg/mL
CC(C)(C)c1ccc(C(=O)Nc2nc(-c3ccccn3)cs2)cc1	MIC	H37Rv		visual reading	0.7 µM
CCOC(=O)c1cc(C(=O)c2ccc(OC)cc2)n2c1ccc1c3ncccc3ccc12	EC50	H37Rv		reporter gene / fluorescence	>200 µM
O=C1C(SCCO)=C(SCCO)C(=O)c2[nH]cnc21	inhibition	H37Rv	12.5 µg/mL	BACTEC	0%
CC1CC(C)CN(c2nc(Nc3ccc(C#N)c(C(F)(F)F)c3)nc(Oc3ccnc4ccccc34)n2)C1	inhibition	H37Rv	6.25 µg/mL	BACTEC	99%
NC(N)=NS(=O)(=O)c1ccc(NC(=O)c2cccn3c(=O)c4ccccc4nc23)cc1	MIC bound	H37Rv		resazurin	>6.25 µg/mL
CC(=O)Nc1ccc(OCC(=O)NN2C(=O)C(C)SC2c2ccc(Cl)cc2Cl)cc1	inhibition	H37Rv	12.5 µg/mL		0%
CCCc1c(-n2[nH]c(=O)n(-c3ccccc3)c2=O)c(=O)n(C)c(=O)n1C	inhibition	H37Rv	6.25 µg/mL	resazurin	18%
CO[C@H]1/C=C/O[C@@]2(C)Oc3c(C)c(O)c4c(O)c(c(/C=N/OCCCCCCO)c(O)c4c3C2=O)NC(=O)/C(C)=C\C=C\[C@H](C)[C@H](O)[C@@H](C)[C@@H](O)[C@@H](C)[C@H](OC(C)=O)[C@@H]1C	MIC	H37Rv			0.5 µg/mL
Cc1ccc(C2=NNc3n[nH]c(=S)n3N2)cc1	inhibition	H37Rv	12.5 µg/mL	BACTEC	0%
N#Cc1ccc(Nc2nc(Oc3ccnc4ccccc34)nc(N3CCN(c4cccc(Cl)c4Cl)CC3)n2)cc1C(F)(F)F	MIC	H37Rv		agar	12.5 µg/mL
CC(=O)c1csc(NC(=O)C2C3CC4CC(C3)CC2C4)n1	MIC	H37Rv		visual reading	>20 µM
CCOC(=O)CN1CC(C)(C)N(CC(=O)OCC)CC1(C)C	MIC	H37Rv		BACTEC	≥12.8 µg/mL
CCN1C(=O)[C@@H]2[C@H](C1=O)[C@@H](C(=O)c1ccc(C)cc1)N1c3ccc4cccnc4c3C=C[C@H]21	EC50	H37Rv		reporter gene / fluorescence	67 µM
COC(=O)NC12CC3CC(C(C)O1)C2N(Cc1ccccc1)C3	inhibition	H37Rv	12.5 µg/mL	BACTEC	22%
CC(=O)Nc1ccc(/C=N/NC(N)=S)cc1	MBC	Isolate D (drug-resistant)			30 µg/mL
COc1cc(C2CC(c3ccc(O)c(C)c3)=NO2)cc(OC)c1OC	MIC	H37R (MTB)			>6.25 µM
N[C@@H]1CONC1=O	MIC	Isoniazid-resistant			<10 µg/mL
c1ccc(-c2c(-c3cccs3)[nH]c(-c3cccs3)c2-c2ccccn2)nc1	inhibition	H37Rv	12.5 µg/mL	BACTEC	49%
COc1c(N2CCNC(C)C2)c(F)cc2c(=O)c(C(=O)O)cn(C3CC3)c12	MIC	35 strains			8 µg/mL
CC(C)(C)c1ccc(Nc2nc(-c3ccccn3)cs2)cc1	MIC	H37Rv		visual reading	2.4 µM
C=Cc1c(C)c2cc3[nH]c(cc4nc(cc5nc(cc1[nH]2)C(C)=C5CCC(=O)OC)C(CCC(=O)OC)=C4C)c(C)c3C=C	inhibition	H37Rv	6.25 µg/mL	resazurin	2%
CCCCC(CCC)O/N=C/c1c2c(O)c3c(O)c(C)c4c(c3c1O)C(=O)[C@@](C)(O/C=C/[C@H](OC)[C@@H](C)[C@@H](OC(C)=O)[C@H](C)[C@H](O)[C@H](C)[C@@H](O)[C@@H](C)/C=C/C=C(/C)C(=O)N2)O4	MIC	H37Rv			2 µg/mL

Again, the opening 6 rows:

structure | endpoint | strain | tested at | method | value
N#Cc1c(NN)nc(NN)c(C#N)c1-c1ccccc1 | MIC | H37Rv |  | BACTEC | ≥12.5 µg/mL
COc1ccc(C2SC(C)C(=O)N2NC(=O)COc2ccc(NC(C)=O)cc2)cc1OC | EC50 | H37Rv |  |  | >12.5 µg/mL
O=C(NCOC(c1ccccc1)c1ccccc1)c1cccnc1 | MIC bound | H37Rv |  | BACTEC | >12.5 µg/mL
CO[C@H]1/C=C/O[C@@]2(C)Oc3c(C)c(O)c4c(O)c(c(/C=N/OC(CC(C)C)C(=O)O)c(O)c4c3C2=O)NC(=O)/C(C)=C\C=C\[C@H](C)[C@H](O)[C@@H](C)[C@@H](O)[C@@H](C)[C@H](OC(C)=O)[C@@H]1C | MIC | H37Rv |  |  | >10 µg/mL
Cc1cc(C2=NOC(c3ccco3)C2)ccc1O | MIC | H37R (MTB) |  |  | 2.76 µM
CC#CC#C/C=C1\C=CC2(OC=CC2OC(C)=O)O1 | MIC | TAC-R |  |  | 12.5 µg/mL

Rows are shuffled and stem from different studies. Inhibition is in % at the dose shown (toxicity tests: loss of growth or viability). ECn: concentration that inhibits the pathogen or its effect by n%. Blank or dashed fields: not listed here. a–b is a range or a potency band. MIC bound comes from a single tested concentration.